Measurements published in publication PMC3662775, “Transient Oligomerization of the SARS-CoV N Protein – Implication for Virus Ribonucleoprotein Packaging” (PLoS ONE, 2013).

Biological target: the molecule itself
Assay: cross-linking + SEC

B1: SARS-CoV N protein C-terminal structural domain (CTD, res. 248–365), wild type (domain or fragment)
chain: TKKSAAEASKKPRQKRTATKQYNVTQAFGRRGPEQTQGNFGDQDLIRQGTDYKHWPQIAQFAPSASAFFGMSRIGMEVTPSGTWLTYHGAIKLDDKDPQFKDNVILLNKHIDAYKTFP
stoichiometry N: 2
